Here are results for 4 molecules from patent publication US20220153873A1, “Anti-influenza B virus neuraminidase antibodies and uses thereof” (ICAHN SCHOOL OF MEDICINE AT MOUNT SINAI, published 2022).

The term Kd denotes the equilibrium constant for the complex coming apart. As a reminder, the koff is the rate constant with which the complex falls apart.

B1: 1F4 antibody (murine IgG2a, hybridoma-produced) (antibody, V domains shown)
VH: QVHLQQSGSELRSPGSSVKLSCKDFDSEVFPIVYMRWIRQKPGHGFEWIGDILPSFGRTIYGEKFEDKATLDADTVSNTAYLELNSLTSEDSAIYYCARGDHGNWLAYWGQGTLVTVSA
VL: DIVMTQSHKFMSTSVGDRVTITCKASQDVSTAVAWYQQKPGQSPKLLIYWASTRHTGVPNRFTGIISGTDYTLTISSVQAEDLALYYCQQHYSAPWTFGGGTKLEIK
notes: also called mAb 1F4; IF4
B2: 4F11 antibody (murine IgG2b, hybridoma-produced) (antibody, V domains shown)
VH: DVKLVESGGDLVKPGGSLKLSCAASGFTFSAYSMSWVRQTPERRLEWVATINTGGSFTYYPDSVKGRFTISRDNAKNTLYLQMSSLKSEDTAMYFCTRVSDYGNSAYFPYWGQGTLVIVSA
VL: QVVLTQSPALISASPGEKVTMTCSASSNVNYMSWYQQRPRSSPKPWIYLTSKLASGVPPRFSGSGSGTSYSLTISSMEAEDVATYYCQQWSSDPQTFGGGTKVEIK
notes: also called mAb 4F11; 4F11 Hybridoma
B3: 4B2 antibody (murine IgG2a, hybridoma-produced) (antibody, V domains shown)
VH: QIQLVQSGPELKKPGETVKISCKASGFTFTDYPMHWVKQAPGKSLKWMGWINTETEEPTYSDDFKGRFALSLETSASTTYLQINNLKNEDTATYFCARSGYYYGSTYAWFGYWGQGTLVTVSA
VL: DVVMTQIPLSLPVSLGDQASISCRSSQSLIHTNGDTFLHWYLQKPGQSPKLLIYKVSNRFSGVPDRFTGGGSGTDFTLKISRVEAEDLGIYFCSQSALFPYTFGGGTNLEIK
notes: also called mAb 4B2
B4: 3G1 antibody (murine IgG2a, hybridoma-produced) (antibody, V domains shown)
VH: QVQLQQSGAELMKPGASVKISCKATGYKFTSYWIGWVKQRPGHGLEWCGEIFPGSGSINYNEKFKGKATFTADTSSNTAYLQLTSLTSEDSAVYYCARGEDYYGSSYGAMDYWGQGTSLTVSS
VL: DVQITQSPSYLAASPGETITINCRASKSISKYVAWYQEKPGRTNKVLIYSGSILSFGNPSRFSGSGSGTDFTLTISSLEPEDFAMYYCQQHNEYPWTFGGGTKLEIK
notes: also called mAb 3G1

This experiment concerns the target recombinant neuraminidase (rNA) of B/Malaysia/2506/04 (influenza B virus B/Malaysia/2506/04).
On to B1, for which the Kd came to 0.819 nM and the off-rate (koff) was 4.25e-05 s⁻¹.
Turning to B2, the Kd is 0.152 nM and the koff is 3.76e-05 s⁻¹.
For B3, the dissociation constant Kd turned out to be 1.75 nM and the koff was found to be 0.000364 s⁻¹.
For B4, in that order: 0.532 nM and 0.000255 s⁻¹.
